## Share of PSTVd stem 26 variants by leaf site

The measurements come from Wu et al. 2024 (doi:10.1371/journal.ppat.1012142).

The pool varies stem 26 of the PSTVd intermediate strain in the pattern AGGGUNNCNN; wild type is AGGGUACCCU (upper and lower strand joined, each 5' to 3', the first 5 letters being the upper strand).

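Three N. benthamiana plants were inoculated with the whole mutant pool. Samples came from the inoculated region at 5 days, the leaf margin at 10 and upper systemic leaves at 12.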

Numbers give reads per thousand; 0 = not seen among the reads, higher = more abundant.
Each site shows the three plants.
"Pool" is the share in the plasmid pool used as inoculum, on the same scale.
The inoculated region was read from the minus strand, the other sites from the plus strand.

| sequence | pool | inoculated region | leaf margin | systemic leaves |
|---|---|---|---|---|
| AGGGUAUCAC | 2.62 | 1.84 2.70 2.28 | 1.20 0 0.744 | 0.0187 0 0 |
| AGGGUAUCAG | 3.57 | 1.39 1.10 0.860 | 0 0 0 | 0 0 0 |
| AGGGUAUCAU | 4.29 | 2.24 1.34 1.85 | 0 0.0261 0 | 0 0 0 |
| AGGGUAUCCA | 3.06 | 1.11 0.525 0.774 | 0.0223 0 0 | 0 0 0 |
| AGGGUAUCCC | 2.76 | 1.87 2.36 1.51 | 1.49 0 0.744 | 0 0 0 |
| AGGGUAUCCG | 3.09 | 1.02 0.683 0.903 | 0 0 0 | 0 0 0 |
| AGGGUAUCCU | 3.49 | 45.3 37.6 28.0 | 26.5 6.43 8.57 | 1.70 46.4 3.06 |
| AGGGUAUCGA | 3.17 | 1.32 1.26 0.774 | 0.0445 0 0 | 0 1.77 0 |
| AGGGUAUCGC | 2.80 | 2.01 2.28 1.89 | 0.890 0 0.803 | 0 0 0 |
| AGGGUAUCGG | 3.03 | 1.46 1.13 0.774 | 0 0 0 | 0 0 0 |
| AGGGUAUCGU | 3.29 | 1.49 1.16 1.16 | 0 0 0.0595 | 0.0187 0 0 |
| AGGGUAUCUA | 2.58 | 1.82 2.52 1.72 | 1.16 0 0.952 | 0 0 0 |
| AGGGUAUCUC | 4.39 | 3.17 3.18 2.41 | 1.31 1.72 0.952 | 0.0561 1.27 2.02 |
| AGGGUAUCUG | 2.76 | 2.10 2.84 1.98 | 0.913 0 0.893 | 0 0 0 |
| AGGGUAUCUU | 3.98 | 2.62 2.99 2.28 | 1.09 0 0.922 | 0 0 0.826 |
| AGGGUAUUCU | 0.0164 | 0 0 0 | 0 0 0 | 0 0 0 |
| AGGGUCAAAU | 0.740 | 0.0945 0.184 0.129 | 0 0 0 | 0 0 0 |
| AGGGUCACAA | 3.14 | 1.37 1.29 1.51 | 0.0445 0 0.0298 | 0 0 0 |
| AGGGUCACAC | 3.08 | 0.992 0.630 1.03 | 0 0 0 | 0 1.67 0 |
| AGGGUCACAG | 3.32 | 0.921 0.945 0.645 | 0 0 0 | 0 0 0 |
| AGGGUCACAU | 2.60 | 1.06 0.656 0.559 | 0 0 0 | 0 0 0 |
| AGGGUCACCA | 4.72 | 1.89 2.07 1.76 | 0 0 0 | 0 0 0.0331 |
| AGGGUCACCG | 3.64 | 1.56 0.893 1.12 | 0 0 0.0298 | 0 0 0 |
| AGGGUCACCU | 5.35 | 1.80 2.10 1.85 | 0 0.209 0 | 0.0187 0.0855 0.132 |
| AGGGUCACGA | 2.89 | 1.16 0.735 0.731 | 0 0 0 | 0 0 0 |
| AGGGUCACGC | 4.11 | 2.93 3.02 2.32 | 0 0 0.0298 | 0 0.0143 0 |
| AGGGUCACGG | 4.98 | 3.45 3.44 2.28 | 0 0.0261 0.0298 | 0 0.0143 0 |
| AGGGUCACGU | 4.52 | 3.02 3.02 1.81 | 0 0 0 | 0.430 0 0 |
| AGGGUCACUA | 2.94 | 1.06 0.919 1.25 | 0 0 0 | 0 0.0143 0 |
| AGGGUCACUC | 3.13 | 1.82 2.36 2.58 | 1.11 0 0.952 | 0 0 0.826 |
| AGGGUCACUG | 3.91 | 1.44 1.18 1.08 | 0.0223 0 0 | 0 0 0 |
| AGGGUCACUU | 2.99 | 1.02 1.05 0.817 | 0.0445 0 0.0595 | 0 0 0 |
| AGGGUCAGCC | 1.32 | 1.23 1.39 0.645 | 0 0 0.0298 | 0 0 0.0165 |
| AGGGUCAGCG | 0.0329 | 0 0 0 | 0 0 0 | 0 0 0 |
| AGGGUCAUCA | 0.0493 | 0.0236 0 0 | 0 0 0 | 0 0 0 |
| AGGGUCAUCG | 0.0329 | 0 0 0 | 0 0 0 | 0 0 0 |
| AGGGUCCCAA | 2.66 | 0.591 0.814 0.559 | 0.0223 0 0.0298 | 0 0 0 |
| AGGGUCCCAC | 2.93 | 0.921 0.683 0.602 | 0 0 0 | 0 0 0 |
| AGGGUCCCAG | 2.91 | 1.04 0.656 0.559 | 0 0 0.0298 | 0 0 0 |
| AGGGUCCCAU | 3.44 | 1.11 0.683 0.860 | 0 0 0.506 | 0 0 0 |
| AGGGUCCCCA | 2.91 | 1.21 0.709 0.559 | 0.0223 0 0.0893 | 0 0 0.0165 |
| AGGGUCCCCC | 2.91 | 0.969 0.630 0.430 | 0 0 0.0298 | 0 0 0 |
| AGGGUCCCCG | 3.82 | 1.44 1.47 1.25 | 0 0 0 | 0 0 0 |
| AGGGUCCCCU | 2.70 | 1.16 0.893 0.817 | 0.0668 0.0523 0.238 | 0.0561 0.0570 0.0165 |
| AGGGUCCCGA | 3.67 | 1.63 1.39 0.989 | 0 0 0 | 0 0 0 |
| AGGGUCCCGC | 6.56 | 4.96 5.59 2.58 | 0.601 0.261 0.0298 | 0.0187 0 0 |
| AGGGUCCCGG | 3.29 | 1.75 1.71 1.08 | 0 0 0.0298 | 0 0 0 |
| AGGGUCCCGU | 2.71 | 0.732 0.656 0.989 | 0 0 0 | 0 0 0 |
| AGGGUCCCUA | 3.50 | 1.46 1.29 1.03 | 0.0223 0 0 | 0 0 0 |
| AGGGUCCCUC | 2.93 | 2.03 2.49 2.19 | 1.11 0 0.952 | 0 0 0 |
| AGGGUCCCUG | 3.88 | 1.63 2.15 1.72 | 0 0 0.0298 | 0 0 0 |
| AGGGUCCCUU | 2.80 | 1.23 0.866 0.903 | 0 0.0261 0 | 0 0.0143 0.0992 |
| AGGGUCCUCA | 1.35 | 0.614 0.473 0.344 | 0 0 0 | 0.0187 0 0 |
| AGGGUCCUCG | 0.0329 | 0 0 0 | 0 0 0 | 0 0 0 |
| AGGGUCGCAA | 2.99 | 0.945 0.656 0.430 | 0 0 0.0298 | 0 0 0 |
| AGGGUCGCAC | 2.70 | 0.921 0.814 0.430 | 0 0 0 | 0 0 0 |
| AGGGUCGCAG | 3.54 | 1.68 1.42 0.946 | 0 0 0 | 0.0187 0 0.0165 |
| AGGGUCGCAU | 4.00 | 1.96 1.84 0.989 | 0 0 0.0595 | 0 0 0.0331 |
| AGGGUCGCCA | 6.02 | 3.12 3.39 2.37 | 1.25 1.31 0.803 | 0.0374 0.0285 0.132 |
| AGGGUCGCCC | 7.30 | 5.86 7.51 4.60 | 0.712 0.0261 1.31 | 0.374 0 0.0165 |
| AGGGUCGCCG | 3.55 | 1.23 0.998 0.989 | 0 0 0 | 0 0 0 |
| AGGGUCGCCU | 2.76 | 1.35 0.709 0.860 | 0.0223 0.0784 0.0298 | 0 0 0 |
| AGGGUCGCGA | 6.74 | 2.98 4.17 2.37 | 0.824 0.810 0.0893 | 0 0 0.0165 |
| AGGGUCGCGC | 2.62 | 0.898 0.656 0.860 | 0 0 0.0298 | 0 0 0 |
| AGGGUCGCGG | 4.21 | 1.80 1.60 1.25 | 0.0223 0 0 | 0 0.0143 0 |

For reference, wild type rose from 44.9 per thousand in the pool to 297, 323, 447 (inoculated region), 793, 829, 846 (leaf margin) and 974, 853, 877 (systemic leaves).
The authors trace changes outside the varied positions to PCR and sequencing errors or to mutation in the plant; presence does not show that a variant is infectious alone.
Samples held 23,251 to 70,159 reads, so the smallest values rest on one or two reads.